Earlier results as cited in article PMC5618561 (International Journal of Molecular Sciences, 2017).

System: behavioral and electrographic SE induced by pilocarpine, soman and paraoxon
Conditions: cited from earlier work

## CCCC(C(N)=O)C(C)CC (stereo not shown) [SPD, sec-Butylpropylacetamide]
  block of behavioral and electrographic SE: blocked
